Pooled drug test results. Numbers come from NIAID ChemDB, via PubChem.

Common to all: growth or infection tests; organism: Yellow fever virus; read-out: EC50

An empty or dashed field is not shown. ECn: concentration that inhibits the pathogen or its effect by n%. Lines come from different laboratories, so protocols vary.

smiles,strain,cell line,value
Cc1ccc(NC(=S)N=Nc2c(O)[nH]c3ccc([N+](=O)[O-])cc23)cc1,-,VERO,1.96 µg/mL
NC(=O)c1[nH]nc([C@@H]2O[C@H](CO)[C@@H](O)[C@H]2O)c1O,Asibi,VERO,0.66 µg/mL
Nc1nc(=O)n2ccn([C@H]3C[C@H](O)[C@@H](CO)O3)c2n1,-,-,>100 µM
CCCCN1C(=O)CS/C1=N/N=C1\C(=O)Nc2ccc([N+](=O)[O-])cc21,-,VERO,>100 µg/mL
CCCN(CCC)CCSc1nnc2c(n1)[nH]c1ccccc12,17D,VERO,>50 µM
C=CCNC(=S)N=Nc1c(O)n(CN2CCCCC2)c2ccc([N+](=O)[O-])cc12,-,VERO,>4 µg/mL
CC1(C)OC2C(O1)[C@@H](COS(=O)(=O)NC(=O)OC1O[C@H](COCc3ccccc3)[C@@H](OCc3ccccc3)[C@H](OCc3ccccc3)[C@H]1OCc1ccccc1)O[C@H]2n1ncc(=O)[nH]c1=O,Asibi,VERO,62.6 µg/mL
CC1S/C(=N/N=C2\C(=O)Nc3ccc([N+](=O)[O-])cc32)N(c2ccc(Cl)cc2)C1=O,-,VERO,1.59 µg/mL
Nc1ncn(C[C@@H](O)CO)c(=O)n1,-,VERO,>100 µg/mL
Nc1ncnc2c1ncn2[C@@H]1O[C@H](CO)[C@](O)(C(F)(F)F)[C@H]1O,-,-,≥100 µM
Nc1ncnc2c1ncn2[C@@H]1C[C@H](NC=O)[C@@H](O)[C@H]1O,-,HFF,>100 µg/mL
C[C@]1(CO)O[C@@H](n2cc(F)c(=O)[nH]c2=O)[C@H](O)[C@@H]1O,-,HepG2.2.15,>10 µM
O=[N+]([O-])c1ccc2c(c1)c(N=NC(=S)Nc1ccc(Cl)cc1)c(O)n2CN1CCCCC1,-,VERO,>20 µg/mL
Nc1ncn(C[C@H](CO)OCP(=O)(O)O)c(=O)n1,-,VERO,>100 µg/mL
C[C@]1(CO)O[C@@H](n2cc(F)c(N)nc2=O)[C@H](O)[C@@H]1O,-,HepG2.2.15,>10 µM
Nc1cnn([C@@H]2O[C@H](CO)C(O)C2O)c(=S)n1,Asibi,VERO,209 µg/mL
Nc1ccn([C@@H]2O[C@H](CO)[C@](O)(C(F)(F)F)[C@H]2O)c(=O)n1,-,-,≥100 µM
Nc1nc(=O)n2ccn(C3O[C@H](CO)[C@@H](O)[C@H]3O)c2n1,-,-,>100 µM
CC1S/C(=N/N=C2\C(=O)Nc3ccc([N+](=O)[O-])cc32)N(c2ccccc2)C1=O,-,VERO,>20 µg/mL
Nc1nc(=O)n2ccn([C@@H]3O[C@H](CO)C[C@H]3O)c2n1,-,-,>100 µM
CC1S/C(=N/N=C2\C(=O)Nc3ccc([N+](=O)[O-])cc32)N(c2ccc([N+](=O)[O-])cc2)C1=O,-,VERO,>100 µg/mL
O=c1cnn([C@@H]2O[C@H](COP(=O)(O)O)[C@@H](O)[C@H]2O)c(=O)[nH]1,Asibi,VERO,3.93 µg/mL

For reference, 3 entries again:

smiles,strain,cell line,value
Nc1ncnc2c1ncn2[C@@H]1O[C@H](CO)[C@](O)(C(F)(F)F)[C@H]1O,-,-,≥100 µM
Cc1ccc(NC(=S)N=Nc2c(O)[nH]c3ccc([N+](=O)[O-])cc23)cc1,-,VERO,1.96 µg/mL
Nc1nc(=O)n2ccn([C@H]3C[C@H](O)[C@@H](CO)O3)c2n1,-,-,>100 µM